Measured values from several laboratories, pooled; numbers as filed in NIAID ChemDB.

All rows: growth or infection tests; agent: Herpes simplex virus 2; measure: inhibition

Inhibition is in % at the dose shown (toxicity tests: loss of growth or viability).

structure	read by	cell line	strain	dose	value
Nc1nc(=O)n([C@@H]2O[C@H](CO)[C@@H](O)[C@@H]2F)cc1I	virus yield	VERO	G	0.1 µM	71%
C=CCc1cn([C@H]2C[C@H](O)[C@@H](CO)O2)c(=O)[nH]c1=O	plaque count	HeLa	333	25 µM	>99%
C/C=C/c1cn([C@@H]2O[C@H](CO)[C@@H](O)[C@@H]2O)c(=O)[nH]c1=O	plaque count	VERO	91075	250 µM	0%
O=C(O)C(O)c1ccccc1	plaque count	CaSki	G	10 µg/mL	100%
CCCCCCCCCCCCCCCCCCCCCC(=O)OCC(CO[C@@H]1O[C@H](CO)[C@@H](O)[C@H](O)[C@H]1O)OC(=O)CCCCCCCCCCCCCCCCCCCCC	plaque count	VERO	186	50 µg/mL	inactive
O=c1[nH]c(=O)n([C@H]2C[C@H](O)[C@@H](CO)O2)cc1I	cytopathic effect	VERO	K979	1 µg/mL	≥25%
Cc1cn([C@H]2C[C@H](O)[C@@H](CO)O2)c(=O)[nH]c1=O	plaque count	HeLa	333	25 µM	0%
Nc1ccn([C@H]2O[C@@H](CO)[C@H](O)[C@H]2F)c(=O)n1	virus yield	VERO	G	0.5 µM	11%
O=c1[nH]c(=O)n([C@@H]2O[C@H](CO)[C@@H](O)[C@@H]2F)cc1I	cytopathic effect	VERO	K979	0.1 µg/mL	≥25%
CN1C(=O)NC(=O)N([C@H]2C[C@H](O)[C@@H](CO)O2)C1(C)C	plaque count	BHK-21	35D	50 µM	90%
C/C=C/c1cn([C@H]2C[C@H](O)[C@@H](CO)O2)c(=O)[nH]c1=O	plaque count	VERO	72	100 µM	30%
CCC(=O)C(CCCCCCOc1ccc(OC)cc1Cl)C(=O)CC	plaque count	VERO	333	4 µg/mL	66%
O=c1[nH]c(=O)n([C@H]2C[C@H](O)[C@@H](CO)O2)cc1/C=C/Br	cytopathic effect	HEP-2	K979	3 µg/mL	≥25%
CCCCC/C=C\C/C=C\CCCCCCCC(=O)OCC(CO[C@@H]1O[C@H](CO)[C@H](O)[C@H](O)[C@H]1O)OC(=O)CCCCCCC/C=C\C/C=C\CCCCC	plaque count	VERO	186	50 µg/mL	50%
Nc1nc2c(ncn2COC(CO)CO)c(=O)[nH]1	cytopathic effect	VERO	K979	0.3 µg/mL	≥25%
Cc1cn([C@@H]2O[C@H](CO)[C@@H](O)[C@@H]2F)c(=O)[nH]c1=O	virus yield	VERO	G	10 µM	99.59%
CC12CC[C@H](O)CC1=CCC1C2CCC2(C)C(C(=O)COS(=O)(=O)O)CCC12	plaque count	VERO	G	80 µg/mL	16.9%
CCCCCCCC/C=C\CCCCCCCC(=O)OC(COC(=O)CCCCCCCCCCC)CO[C@@H]1O[C@H](CO)[C@@H](O)[C@H](O)[C@H]1O	plaque count	VERO	186	50 µg/mL	17%
CSc1cnc(=O)n([C@H]2C[C@H](O)[C@@H](CO)O2)c1	plaque count	HeLa	333	400 µM	97%
CCCCCCCCCCCCCCCCCCCCCC(=O)OC(COC(=O)CCCCCCCCCCCCCCCCC)CO[C@@H]1O[C@H](CO)[C@@H](O)[C@H](O)[C@H]1O	plaque count	VERO	186	50 µg/mL	inactive
CC(C)=CCCC(CO)C1CCC2C3CC=C4C[C@H](O)[C@@H](O)CC4(C)C3CCC12C	plaque count	VERO	G	10 µg/mL	33.3%
O=c1ccn([C@@H]2O[C@H](CO)[C@@H](O)[C@@H]2F)c(=O)[nH]1	virus yield	VERO	G	1 µM	91.5%
CC(=O)O[C@H]1CC2=CCC3C(CCC4(C)C(C(CCC=C(C)C)COS(=O)(=O)O)CCC34)C2(C)C[C@@H]1OS(=O)(=O)O	plaque count	VERO	G	40 µg/mL	91%
CCCCCCCCCCCC(=O)OCC(CO[C@@H]1O[C@H](CO)[C@H](O)[C@H](O)[C@H]1O)OC(=O)CCCCCCCCCCC	plaque count	VERO	186	50 µg/mL	50%

Again, the opening 2 rows:

{"structure": "Nc1nc(=O)n([C@@H]2O[C@H](CO)[C@@H](O)[C@@H]2F)cc1I", "read by": "virus yield", "cell line": "VERO", "strain": "G", "dose": "0.1 µM", "value": "71%"}
{"structure": "C=CCc1cn([C@H]2C[C@H](O)[C@@H](CO)O2)c(=O)[nH]c1=O", "read by": "plaque count", "cell line": "HeLa", "strain": "333", "dose": "25 µM", "value": ">99%"}

Rows are shuffled and stem from different studies. For "inactive" no cut-off is given.